The experiment deals with HA-NP (HA-tagged EBOV nucleoprotein), Zaire ebolavirus (EBOV), P18272 1-739.

As to FLAG-tagged EBOV VP35 K309G, the result was “binds”. untagged EBOV VP35 K309R registered a fold binding relative to wt VP35 without OTU of 5 fold.
